Source: PubChem BioAssay AID1259414 (Drosophila RNAi Screening Center, 2018)
The screen tested about 24,000 reagents; below is an unselected part of those that have a named target and a result. In the full data, about 1,210 (5%) are marked active. 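Inactive calls also include excluded dsRNAs with several or no targets, genes unexpressed in JW18, and well A1, regardless of score.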 The numbers tell different reagents against one gene apart.

Screen: 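Fly genes that alter Wolbachia amount inside host cells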 (primary screen)
System: Drosophila JW18 cells infected with Wolbachia
Reagent: long dsRNA against Drosophila genes, 0.25 µg dsRNA per well of a 384-well plate
Time to read-out: 5 days
Treatment: cells persistently infected with Wolbachia before knock-down; no added drug
Detection: 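Imaged fluorescence in situ signal for Wolbachia 23S rRNA per DAPI-counted host cell, given as a robust z-score within each plate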
Scale: Wolbachia per cell robust z: higher = more Wolbachia per host cell than the plate typical
Call rule: 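Active if absolute robust z reaches 1.5 in two or more of three replicates, leaving out multi- or no-target dsRNAs, genes unexpressed in JW18 and A1 wells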

The first 2 records as a preview:
| target | reagent no. | Wolbachia per cell robust z, rep 1 | Wolbachia per cell robust z, rep 2 | Wolbachia per cell robust z, rep 3 | activity call |
| --- | --- | --- | --- | --- | --- |
| CG11168 | 1 | -0.214 | -0.35 | -1.06 | inactive |
| CG13722 | 1 | -8.47 | -1.26 | 0.0445 | inactive |

The list itself, from the start:
| target | reagent no. | Wolbachia per cell robust z, rep 1 | Wolbachia per cell robust z, rep 2 | Wolbachia per cell robust z, rep 3 | activity call |
| --- | --- | --- | --- | --- | --- |
| CG11168 | 1 | -0.214 | -0.35 | -1.06 | inactive |
| CG13722 | 1 | -8.47 | -1.26 | 0.0445 | inactive |
| CG13722 | 2 | 0.958 | 0.754 | 1.24 | inactive |
| CG13722 | 3 | 0.298 | -0.322 | -0.027 | inactive |
| Hr96 | 1 | -8.15 | -0.709 | -0.411 | inactive |
| BtbVII | 1 | 1.29 | 1.22 | 1.71 | inactive |
| BtbVII | 2 | 0.816 | 0.766 | 0.231 | inactive |
| BtbVII | 3 | 1.76 | 0.969 | -4.79 | inactive |
| CG6432 | 1 | 1.61 | -9.51 | 2.45 | inactive |
| CG17221 | 1 | 0.661 | -1.52 | 0.595 | inactive |
| CG17221 | 2 | 0.812 | -0.00219 | 0.305 | inactive |
| Dred | 1 | 1.26 | 0.41 | 0.859 | inactive |
| Dred | 2 | -0.405 | 0.0649 | -1.05 | inactive |
| PICK1 | 1 | 0.164 | 0.32 | 0.222 | inactive |
| TAF1C-like | 1 | -0.0945 | 0.468 | -0.65 | inactive |
| Kr | 1 | -0.386 | -3.13 | -0.647 | inactive |
| CG3776 | 1 | -1.05 | -0.829 | -0.729 | inactive |
| CG11141 | 1 | 0.582 | 0.259 | 1 | inactive |
| CG13872 | 1 | 0.433 | -1.34 | -1.2 | inactive |
| CG4553 | 1 | -3.83 | 0.207 | 0.161 | inactive |
| CG4553 | 2 | -0.494 | 0.161 | 0.112 | inactive |
| Obp8a | 1 | 0.331 | 0.408 | 0.177 | inactive |
| Obp8a | 2 | -0.0717 | -0.562 | -0.232 | inactive |
| Gr89a | 1 | -0.00472 | 1.38 | 0.0847 | inactive |
| CG16926 | 1 | 0.624 | 0.509 | 0.982 | inactive |
| Brms1 | 1 | 0.299 | 0.529 | 0.966 | inactive |
| Alg1 | 1 | 0.0759 | -0.0646 | -0.175 | inactive |
| Alg1 | 2 | -1.05 | 0.441 | -8.48 | inactive |
